Target: recombinant OPA enzyme (Brevundimonas diminuta, UniProt P0A434)
Test: Kinetic constants for the hydrolysis of organophosphorus insecticides (substrate specificity)
Details: pH 9, 100 mM CHES buffer, 10% methanol

SMILES: CCOP(=O)(OCC)Oc1ccc([N+](=O)[O-])cc1
- Km: 90 µM
